Results of unrelated studies side by side (data: NIAID ChemDB).

Shared fields: growth or infection tests; agent: HIV-1; cells: CEM; endpoint: EC50

Lines come from different laboratories, so protocols vary.

structure,strain or isolate,mutations,method,conditions,value
COC(=O)c1cc(NC(=O)C2=C(C)OCCS2)ccc1Cl,TIBO-resistant (RT L100I),RT-L100I,syncytia,,>10 µg/mL
CCOCn1c(Sc2cc(C)cc(C)c2)c(CC)c(=O)[nH]c1=S,IIIB,Nevirapine resistant (RT Y181C),syncytia,,0.07 µM
Cc1ccc(C)c(C(Cl)S(=O)(=O)c2cc(C)cc[n+]2[O-])c1,RF,,syncytia,,1 µg/mL
Cc1ccc(C)c(C(CO)S(=O)(=O)c2ccccn2)c1,IIIB,,syncytia,,>100 µg/mL
CCC(=O)Oc1ccc(NC(=O)C2=C(C)OCCS2)cc1C(=O)OC(C)C,TSAO-resistant (RT E138K),RT-E138K,syncytia,,>10 µg/mL
COc1cc(OC[C@H]2CC[C@@H](CO)O2)ncn1,IIIB,,syncytia,,>50 µM
COC(=O)N[C@@H](Cc1ccccc1)[C@H](O)CN(CC(C)C)S(=O)(=O)c1ccc(F)cc1,IIIB,,p24,,<1.001 µM
CC(=O)c1ccc(C)cc1NC(C(N)=O)c1c(Cl)cccc1Cl,IIIB,,flow cytometry,,0.004 µM
COc1ccc(C)cc1CS(=O)(=O)c1cccc[n+]1[O-],IIIB,,syncytia,,5.9 µg/mL
COc1ccc2[nH]c(=O)c(CN(Cc3cccnc3)S(=O)(=O)c3cccc4nsnc34)cc2c1,IIIB,,p24 / ELISA,,0.0199 µM
CC(=O)n1c(=O)sc2cc(C(=O)c3ccccc3)ccc21,IIIB,,syncytia,,4.6 µg/mL
CCCNC(=O)c1ccccc1SSc1ccccc1C(=O)NCCC,,,XTT,,>19 µM
COc1ccc(CS(=O)(=O)c2cc(C(C)(C)C)cc[n+]2[O-])cc1,IIIB,,syncytia,,>20 µg/mL
N[C@H]1CONC1=O,N1T,,p24,,~2.5 µg/mL
c1ccc(COC[C@@H]2CC[C@H](COc3ncnc4nc[nH]c34)O2)cc1,IIIB,,syncytia,,>2 µM
NS(=O)(=O)c1ccc(NC(=O)c2ccccc2[N+](=O)[O-])cc1,,,XTT,,>100 µM
O=c1[nH]cnc2c1ncn2[C@H]1CC[C@@H](CCP(=O)(O)O)O1,IIIB,,p24,,>200 µM
O=C(c1cccc([N+](=O)[O-])c1)c1ccc2[nH]c(=O)sc2c1,IIIB,,syncytia,,>1.6 µg/mL
Cc1cccc(CS(=O)(=O)c2cccc[n+]2[O-])c1,RF,,syncytia,,10 µg/mL
Cc1cc(S(=O)(=O)Nc2nnc3c4ccccc4cnn23)c(S)cc1Cl,ddI-resistant,,p24,,8.2 µM
CCc1c(Sc2cc(C)cc(C)c2)n(COCc2ccccc2)c(=S)[nH]c1=O,IIIB,RT-Y181I,syncytia,,0.24 µM
CCC(c1cc(C)ccc1C)S(=O)(=O)c1cccc[n+]1[O-],IIIB,,syncytia,,>20 µg/mL
COC(=O)[C@H](Cc1ccccc1)NC(=O)[C@H]1/C(=C/CO)O[C@@H]2CC(=O)N21,IIIB,,cytopathic effect / XTT,,18 µg/mL
Nc1nc(N)c2ncn(CC3(CO)C[C@@H]3CO)c2n1,RF,,cytopathic effect / MTT,,>100 µg/mL
C[C@H](Cn1cnc2c(N)ncnc21)OCP(=O)(O)O,IIIB,,syncytia,,1.1 µM
CCCCCCCCCC=C(c1cc(Cl)c(OC)c(C(=O)O)c1)c1cc(Cl)c(OC)c(C(=O)O)c1,,,cytopathic effect / XTT,,42.7–100 µM
Cc1cccc(NC(=O)c2ccccc2SSc2ccccc2C(=O)Nc2cccc(C)c2)c1,,,XTT,,20 µM
Nc1ccn([C@@H]2O[C@H](CO)C[C@@H]2F)c(=O)n1,,,p24,,4 µM
N#C/C(=C/c1c(Cl)cccc1Cl)S(=O)(=O)c1cccc[n+]1[O-],IIIB,,syncytia,,>4 µg/mL
C=Cc1cn([C@H]2C=C[C@@H](OCP(=O)(O)O)O2)c(=O)[nH]c1=O,IIIB,,cytopathic effect / XTT,,>100 µg/mL
Cc1ccc(C)c(C(Cl)S(=O)(=O)c2cc(C)cc[n+]2[O-])c1,MN,,cytopathic effect,,≥4 µg/mL
Cc1ccc(C)c(CS(=O)(=O)c2ccccn2)c1,MN,,syncytia,,20 µg/mL
CCOCn1c(Cc2cc(C)cc(C)c2)c(CC)c(=O)[nH]c1=O,IIIB,RT-Y181C,syncytia,,0.04 µM
CCNC(=O)NC(=O)C(C)OC(=O)c1c2c(nc3ccccc13)/C(=C\c1cccc(OC)c1OC)CC2,,,luciferase,pseudotyped,2 µM
CCC(=O)c1ccc2c(c1)sc(=O)n2CCN1CCOCC1,IIIB,,syncytia,,>40 µg/mL
Cc1cn([C@@H]2O[C@H](CO)C[C@@H]2F)c(=O)[nH]c1=O,,,p24,,>100 µM
Nc1ccn([C@H]2CC[C@@H](CCP(=O)(O)O)O2)c(=O)n1,IIIB,,p24,,150 µM
OC[C@@H]1CC[C@H](COc2ncnc3nc[nH]c23)O1,IIIB,,syncytia,,>250 µM
O=S(=O)(Cc1c(Cl)ccc(Cl)c1Cl)c1cccc[n+]1[O-],IIIB,,syncytia,,≥4 µg/mL
CC(C)c1c(Sc2ccccc2)n(COCCO)c(=S)[nH]c1=O,IIIB,Nevirapine resistant (RT Y181C),syncytia,,10 µM
CC1=C(C(=O)Nc2ccc(Cl)c(C(=O)OC3CCCCC3)c2)SCCO1,IIIB,,syncytia,,0.04 µg/mL
Cc1ccc(C)c(C(C)(Cl)S(=O)(=O)c2cccc[n+]2[O-])c1,IIIB,,syncytia,,>4 µg/mL
CC(=O)Nc1nc(C)c(S(=O)(=O)N(Cc2ccccc2)C[C@@H](O)[C@H](Cc2ccccc2)NC(=O)[C@H](CC(N)=O)NC(=O)c2ccc3ccccc3n2)s1,IIIB,,p24,,<0.101 µM
COC(=O)C(c1cc(C)ccc1C)S(=O)(=O)c1cccc[n+]1[O-],IIIB,,syncytia,,2.2 µg/mL
CC1=C(C(=O)Nc2cc(C(=O)OC(C)C)c(F)cc2F)SCCO1,IIIB,,syncytia,,0.85 µg/mL
COc1c(Cl)cc(C(=CCC[C@H]2CC[C@@]3(C)[C@@H](CC[C@@H]4[C@@H]3CC[C@]3(C)[C@@H]([C@H](C)CCCC(C)C)CC[C@@H]43)C2)c2cc(Cl)c(OC)c(C(=O)O)c2)cc1C(=O)O,,,cytopathic effect / XTT,,6.1–22 µM
NS(=O)(=O)c1ccc(NC(=O)c2ccccc2O)cc1,,,XTT,,>100 µM
Nc1nc(Cl)cc(OC[C@H]2O[C@H](COCc3ccccc3)[C@@H](OCc3ccccc3)[C@H]2OCc2ccccc2)n1,IIIB,,syncytia,,>250 µM
COc1cccnc1SCc1cc(C)ccc1C,IIIB,,syncytia,,1.7 µg/mL
CC1=C(C(=O)Nc2cc(Cl)cc(C(=O)OC(C)C)c2)SCCO1,TSAO-resistant (RT E138K),RT-E138K,syncytia,,5.5 µg/mL
Nc1nc(N)c2ncn(CC3(CO)CC3CO)c2n1,RF,,cytopathic effect / MTT,,>100 µg/mL
CCc1cn([C@H]2C=C[C@@H](OCP(=O)(O)O)O2)c(=O)nc1N,IIIB,,cytopathic effect / XTT,,>100 µg/mL
C=C(C)COC(=O)N[C@@H](Cc1ccccc1)[C@H](O)CN(CC(C)C)S(=O)(=O)c1ccc(F)cc1,IIIB,,p24,,<1.001 µM
Cc1ccc[n+]([O-])c1S(=O)(=O)Cc1cccc([N+](=O)[O-])c1C,IIIB,,syncytia,,≥4 µg/mL
CCCCCC=C(c1cc(Br)c(OC)c(C(=O)OC)c1)c1cc(Br)c(OC)c(C(=O)OC)c1,,,cytopathic effect / XTT,,0.272–49.7 µM
CCOCn1c(Cc2ccccc2)c(C(C)C)c(=O)[nH]c1=O,IIIB TIBO R82913-resistant (RT K103N),RT-K103N,syncytia,,1.3 µM
CN(C)c1ccnc(SCc2ccc(Cl)cc2)c1C#N,IIIB,,syncytia,,>20 µg/mL
Nc1cc(OCC2O[C@H](COCc3ccccc3)[C@@H](OCc3ccccc3)[C@H]2OCc2ccccc2)nc(N)n1,IIIB,,syncytia,,>10 µM
O=C(N[C@@H](Cc1ccccc1)[C@H](O)CN(CC1CCCC1)S(=O)(=O)c1ccc(F)cc1)OCc1cccnc1,IIIB,,p24,,<1.001 µM
CC1=C(C(=O)Nc2cc(C(=O)OC(C)C)c(C)cc2F)SCCO1,IIIB,,syncytia,,2.3 µg/mL
CCc1c(Sc2ccccc2)n(COCc2ccccc2)c(=O)[nH]c1=O,IIIB TIBO R82913-resistant (RT K103N),RT-K103N,syncytia,,0.82 µM
COc1ccc(S(=O)(=O)N(CC(C)C)C[C@@H](O)[C@H](Cc2ccccc2)NC(=O)OCc2ccncc2)cc1,IIIB,,p24,,<0.101 µM
Cc1c(Cl)ccc(C(C)S(=O)c2cccc[n+]2[O-])c1Cl,IIIB,,syncytia,,>0.16 µg/mL
C=CC[C@H](NC(=O)[C@H](Cc1ccccc1)NS(=O)(=O)N1CCOCC1)C(=O)N[C@@H](CC1CCCCC1)[C@@H](O)C[C@H](C(=O)NCCCC)C(C)C,IIIB,,cytopathic effect / XTT,,1.9 µM
Cc1ccc(C)c(C(C)S(=O)c2cccc[n+]2[O-])c1,IIIB,,syncytia,,>0.8 µg/mL
CN(C)c1cccc(C(=O)c2ccc3[nH]c(=O)oc3c2)c1,IIIB,,syncytia,,>8 µg/mL
Cc1ccc(C)c(CS(=O)c2ccc(Cl)c[n+]2[O-])c1,,RT-Y181C,cytopathic effect,,9.4 µg/mL
Cc1cn([C@H]2C=C[C@@H](OCP(=O)(O)O)O2)c(=O)[nH]c1=O,IIIB,,cytopathic effect / XTT,,29 µg/mL
CCCCCC=C(c1cc(Cl)c(OC)c(C(=O)OC)c1)c1cc(Cl)c(OC)c(C(=O)OC)c1,,,cytopathic effect / XTT,,10.1–20.8 µM
Cc1ccc(C)c(CS(=O)(=O)c2cccc[n+]2[O-])c1,,RT-Y181C,cytopathic effect,,20 µg/mL
N#CC(c1ccc(F)cc1)S(=O)c1cccc[n+]1[O-],IIIB,,syncytia,,>0.16 µg/mL
CCCCC(=O)c1ccc2c(c1)sc(=O)n2CCN1CCOCC1,IIIB,,syncytia,,>8 µg/mL
COc1cccnc1SCc1ccccc1,IIIB,,syncytia,,21 µg/mL
Cc1ccc(C)c(C(C)S(=O)(=O)c2c(C)ccc[n+]2[O-])c1,MN,,cytopathic effect,,1.4 µg/mL
Cc1ccc(C)c(C(CC(C)C)S(=O)(=O)c2cccc[n+]2[O-])c1,IIIB,,syncytia,,>4 µg/mL
CC(C)CN(C[C@@H](O)[C@H](Cc1ccccc1)NC(=O)O[C@@H]1CCOC1)S(=O)(=O)c1cccc(S(N)(=O)=O)c1,IIIB,,p24,,<0.101 µM
CCOc1ccccc1CS(=O)c1cccc[n+]1[O-],IIIB,,syncytia,,>20 µg/mL
O=C(c1ccccc1)c1ccc2c(c1)oc(=O)n2CCN1CCCCC1,IIIB,,syncytia,,>8 µg/mL
O=C(O)n1sc2ccccc2c1=O,,,XTT,,82 µM
CC(C)CS[C@@H]1C=C[C@H](n2cnc3c(N)ncnc32)C1,IIIB,,cytopathic effect / syncytia / trypan blue,,>10 µg/mL
COC1=C(C2=C(Cl)C(=O)c3ccccc3C2=O)C(=O)c2ccc3c(c2C1=O)C=C[C@@](C)(CCC=C(C)C)O3,IIIB,,cytopathic effect / MTT,,2.3 µM
Cc1ccc(C)c(C(C)S(=O)(=O)c2c(C)ccc[n+]2[O-])c1,IIIB,,syncytia,,0.1 µg/mL
Nc1nc(N)nc(OC[C@H]2CC[C@@H](CO)O2)n1,IIIB,,syncytia,,>250 µM
c1ccc(COc2cccnc2SCc2ccccc2)cc1,IIIB,,syncytia,,>4 µg/mL
CCNC(=O)NC(=O)C(C)OC(=O)c1c2c(nc3ccccc13)/C(=C\c1cccs1)CCC2,,,luciferase,pseudotyped,3 µM
O=[N+]([O-])c1ccc(SCc2ccccc2)nc1,IIIB,,syncytia,,>20 µg/mL
CC(C)=CCOc1cc(NC(=S)c2ccoc2C)ccc1Cl,IIIB,,syncytia,,0.002 µg/mL

ECn is the concentration giving n% inhibition of infection, replication or growth. Two numbers with a dash give a range or band. Blank or dashed fields: not listed here.